Results deposited as PubChem BioAssay AID1224833 (University of Georgia, 2016).
Screen: 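Host factors restraining rotavirus as candidate antiviral genes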 (primary screen). Cell system: monkey MA104 kidney cells. Knock-down reagent: siRNA pool against human genes, 50 nM. Duration: 48 h knock-down before infection; read 24 h after infection. Treatment: infection with rotavirus strain RV3 two days after transfection; infectious dose for this stage not given. Measured: 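z-score of rotavirus antigen signal per well, from a fluorescent immunoassay, relative to non-targeting control wells on the same plate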. Scale: z-score vs non-targeting control: higher = more rotavirus replication than with non-targeting control. Rule for the call: In these data the active calls have z-score vs non-targeting control at about -1 or lower, or at about 1 or higher. Calls: active = z-score beyond 1 either way; inactive = z-score within 1 of zero.
The whole screen tested about 12,000 reagents; below is a random part of them. About 5,600 of all reagents (46%) were called active. 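Active calls cover z-scores past 1 in both directions, so they include lowered as well as raised rotavirus replication.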 No sequences are given here.

| target | z-score vs non-targeting control | outcome |
| --- | --- | --- |
| AEN | 0.852 | inactive |
| MTCH2 | -2.02 | active |
| UCMA | 1.28 | active |
| YIPF1 | -0.848 | inactive |
| SLC36A4 | -0.659 | inactive |
| MTIF2 | -1.17 | active |
| GPR173 | -1.14 | active |
| KRTAP10-10 | -1.45 | active |
| CLSTN2 | -1.51 | active |
| BHLHE40 | 0.692 | inactive |
| CYP7A1 | -0.946 | inactive |
| CEACAM3 | -1.34 | active |
| AGAP7P | -1.03 | active |
| KIF15 | -0.587 | inactive |
| REG3G | -0.651 | inactive |
| SNAI3 | -1.62 | active |
| DCP1B | 0.289 | inactive |
| PAX2 | -1.12 | active |
| RSPH6A | 1.78 | active |
| BPI | -0.964 | inactive |
| SLC35E4 | -1.06 | active |
| NVL | -0.026 | inactive |
| ADIPOQ | 0.366 | inactive |
| IFNA7 | 0.211 | inactive |
| TSPYL5 | 1.02 | active |
| PPA2 | -1.34 | active |
| ZFP69B | 1.26 | active |
| COL21A1 | -1.75 | active |
| BDKRB2 | -1.2 | active |
| UTP20 | 0.566 | inactive |
| SEMA6A | 0.168 | inactive |
| TNIP2 | -2.19 | active |
| SYTL5 | 0.547 | inactive |
| ART4 | -1.63 | active |
| SEMA7A | -0.317 | inactive |
| SP7 | -0.805 | inactive |
| OR5K4 | 0.17 | inactive |
| STXBP6 | -0.665 | inactive |
| KIAA0513 | 0.42 | inactive |
| MRPL20 | -0.207 | inactive |
| OR13C4 | -0.977 | inactive |
| PEX1 | -1.08 | active |
| ADNP2 | -0.62 | inactive |
| ARHGEF15 | -2.52 | active |
| CARD8 | 0.448 | inactive |
| CEP57L1 | 0.618 | inactive |
| ZBTB37 | -1.18 | active |
| GLRX | -1.48 | active |
| MGME1 | -0.0694 | inactive |
| SELENOV | 1.38 | active |
| APOBEC4 | 1.87 | active |
| KRT33A | -0.869 | inactive |
| LRTM2 | -0.9 | inactive |
| DHRS4 | -0.57 | inactive |
| PLD2 | -1.6 | active |
| TCL1A | -1.25 | active |
| GPI | 1.48 | active |
| IL1A | -1.64 | active |
| PRAMEF10 | -1.69 | active |
| SLC7A4 | -0.806 | inactive |
| ESRRB | 0.594 | inactive |
| CLEC4E | 1.73 | active |

Individual results from above:
KIF15, z-score vs non-targeting control = -0.587
Value for CLSTN2 under “outcome”: active
Value of MGME1 in “outcome”: inactive
Result for SP7 under “outcome”: inactive
STXBP6, outcome: inactive
MTIF2, z-score vs non-targeting control = -1.17

Additional reagents follow.
| target | z-score vs non-targeting control | outcome |
| --- | --- | --- |
| ZBTB33 | -0.0199 | inactive |
| ARHGAP18 | -1.2 | active |
| ANKFY1 | -1.66 | active |
| FAM78B | -2.42 | active |
| TM4SF4 | -1.81 | active |
| CD48 | -0.0915 | inactive |
| PLEKHA3 | 0.569 | inactive |
| FBN1 | -1.26 | active |
| CCR9 | 1.34 | active |
| GCH1 | -0.691 | inactive |
| TBX19 | -1.82 | active |
| IGDCC4 | -0.27 | inactive |
| UBXN1 | -2.33 | active |
| CFAP107 | 0.46 | inactive |
| NOS3 | -0.491 | inactive |
| GLE1 | -1.49 | active |
| MYOG | 0.773 | inactive |
| TXNDC12 | -1.2 | active |
| IQGAP2 | -0.788 | inactive |
| POLR2I | -1.06 | active |
| NXPE1 | -1.29 | active |
| MAP3K7CL | 0.957 | inactive |
| AGFG2 | 0.587 | inactive |
| FOXJ1 | 3.29 | active |
| RBMY1J | -0.7 | inactive |
| AMN | 2.43 | active |
| CRELD1 | -0.821 | inactive |
| MRPL15 | -0.925 | inactive |
| FOXP4 | -1.55 | active |
| BMP8B | -1.21 | active |
| ARHGAP10 | -2.51 | active |
| CHRD | 0.162 | inactive |
| ANK2 | 1.6 | active |
| AADAC | 1.45 | active |
| NUP35 | -1.2 | active |
| GTF2A2 | 1.6 | active |
| TTC39C | 0.259 | inactive |
| OR1I1 | -0.526 | inactive |
| HTR3D | 1.54 | active |
| RHBG | 0.922 | inactive |
| HSF2BP | -0.197 | inactive |
| TCOF1 | -1.53 | active |
| SEPTIN11 | 0.574 | inactive |
| HLA-DRB4 | 1.71 | active |
| BOLA2 | -1.01 | active |
| TXNIP | -2.44 | active |
| USP32 | 0.959 | inactive |
| KRT80 | -2.38 | active |
